Test results from ChEMBL document CHEMBL4376895, “Structure and Activity Studies of Disulfide-Deficient Analogues of αO-Conotoxin GeXIVA” (J Med Chem, 2020).

Assays:
[1] = Inhibition of Nav1.2/Nav1.4 (unknown origin) expressed in Xenopus laevis oocytes at -80 mV holding potential by two electrode voltage-clamp assay
[2] = Antagonist activity at mouse alpha1beta1epsilondelta nAChR expressed in Xenopus laevis oocytes assessed as inhibition of Ach-induced response at -70 mV holding potential by two electrode voltage-clamp assay
[3] = Antagonist activity at rat alpha6alpha3beta4 nAChR expressed in Xenopus laevis oocytes assessed as inhibition of Ach-induced response at -70 mV holding potential by two electrode voltage-clamp assay

SMILES | IC50 [1] [nM] | IC50 [2] [nM] | IC50 [3] [nM]
C[C@H](N)C(=O)N[C@H]1CSSC[C@@H]2NC(=O)[C@H](CCCNC(=N)N)NC(=O)[C@H](CO)NC(=O)[C@H](Cc3cnc[nH]3)NC(=O)[C@H](CC(=O)O)NC(=O)[C@H](CCCNC(=N)N)NC(=O)[C@H](C)NC(=O)[C@H](Cc3c[nH]c4ccccc34)NC(=O)[C@H](CCCCN)NC(=O)[C@H](CO)NC(=O)[C@H](CO)NC(=O)[C@H](CSSC[C@@H](C(N)=O)NC2=O)NC(=O)[C@H](CC(N)=O)NC1=O | 8240 |  | 
N=C(N)NCCC[C@@H]1NC(=O)[C@H](CO)NC(=O)[C@H](Cc2cnc[nH]2)NC(=O)[C@H](CC(=O)O)NC(=O)[C@H](CCCNC(=N)N)NC(=O)[C@@H]2CSSC[C@H](N)C(=O)N[C@H]3CSSC[C@H](NC1=O)C(=O)N[C@H](C(N)=O)CSSC[C@H](NC(=O)[C@H](CC(N)=O)NC3=O)C(=O)N[C@@H](CO)C(=O)N[C@@H](CO)C(=O)N[C@@H](CCCCN)C(=O)N[C@@H](Cc1c[nH]c3ccccc13)C(=O)N2 | 460 |  | 
C[C@@H]1NC(=O)[C@H](CCCNC(=N)N)NC(=O)[C@H](CO)NC(=O)[C@H](Cc2cnc[nH]2)NC(=O)[C@H](CC(=O)O)NC(=O)[C@H](CCCNC(=N)N)NC(=O)[C@@H]2CSSC[C@H](N)C(=O)N[C@@H](C)C(=O)N[C@@H](CC(N)=O)C(=O)N[C@@H](CSSC[C@@H](C(N)=O)NC1=O)C(=O)N[C@@H](CO)C(=O)N[C@@H](CO)C(=O)N[C@@H](CCCCN)C(=O)N[C@@H](Cc1c[nH]c3ccccc13)C(=O)N2 | 17400 |  | 
CC[C@H](C)[C@@H]1NC(=O)[C@H](CCCNC(=N)N)NC(=O)[C@H](CCCNC(=N)N)NC(=O)[C@@H](NC(=O)[C@H](Cc2ccc(O)cc2)NC(=O)[C@H](CCCNC(=N)N)NC(=O)[C@H](CCCNC(=N)N)NC(=O)[C@H](CCCNC(=N)N)NC(=O)[C@H](CCCNC(=N)N)NC(=O)[C@H](CC(=O)O)NC(=O)[C@H](Cc2ccc(O)cc2)NC(=O)[C@@H]2CCCN2C(=O)[C@H](CO)NC(=O)[C@H](CCCNC(=N)N)NC(=O)[C@H](CO)NC(=O)[C@H](Cc2ccc(O)cc2)NC(=O)[C@H](CCCNC(=N)N)NC(=O)CNC(=O)[C@H](CO)NC(=O)[C@H](CO)NC(=O)[C@H](CCCNC(=N)N)NC(=O)[C@H](CO)NC(=O)[C@@H](N)[C@@H](C)O)CSSC[C@@H](C(=O)N[C@H](C(=O)O)C(C)C)NC(=O)[C@H](C)NC(=O)[C@H](CC(=O)O)NC(=O)[C@H]([C@@H](C)O)NC1=O |  | 1960 | > 10000
CC[C@H](C)[C@H](NC(=O)[C@H](CCCNC(=N)N)NC(=O)[C@H](CCCNC(=N)N)NC(=O)[C@H](C)NC(=O)[C@H](Cc1ccc(O)cc1)NC(=O)[C@H](CCCNC(=N)N)NC(=O)[C@H](CCCNC(=N)N)NC(=O)[C@H](CCCNC(=N)N)NC(=O)[C@H](CCCNC(=N)N)NC(=O)[C@H](CC(=O)O)NC(=O)[C@H](Cc1ccc(O)cc1)NC(=O)[C@@H]1CCCN1C(=O)[C@H](CO)NC(=O)[C@H](CCCNC(=N)N)NC(=O)[C@H](CO)NC(=O)[C@H](Cc1ccc(O)cc1)NC(=O)[C@H](CCCNC(=N)N)NC(=O)CNC(=O)[C@H](CO)NC(=O)[C@H](CO)NC(=O)[C@H](CCCNC(=N)N)NC(=O)[C@H](CO)NC(=O)[C@@H](N)[C@@H](C)O)C(=O)N[C@H](C(=O)N[C@@H](CC(=O)O)C(=O)N[C@@H](C)C(=O)N[C@@H](C)C(=O)N[C@H](C(=O)O)C(C)C)[C@@H](C)O |  | 2370 | > 10000
CC[C@H](C)[C@@H]1NC(=O)[C@H](CCCNC(=N)N)NC(=O)[C@H](CCCNC(=N)N)NC(=O)[C@@H](NC(=O)[C@H](Cc2ccc(O)cc2)NC(=O)[C@H](CCCNC(=N)N)NC(=O)[C@H](CCCNC(=N)N)NC(=O)[C@H](CCCNC(=N)N)NC(=O)[C@H](CCCNC(=N)N)NC(=O)[C@H](CC(=O)O)NC(=O)[C@H](Cc2ccc(O)cc2)NC(=O)[C@@H]2CCCN2C(=O)[C@H](CO)NC(=O)[C@H](CCCNC(=N)N)NC(=O)[C@H](C)NC(=O)[C@H](Cc2ccc(O)cc2)NC(=O)[C@H](CCCNC(=N)N)NC(=O)CNC(=O)[C@H](CO)NC(=O)[C@H](CO)NC(=O)[C@H](CCCNC(=N)N)NC(=O)[C@H](C)NC(=O)[C@@H](N)[C@@H](C)O)CSSC[C@@H](C(=O)N[C@H](C(=O)O)C(C)C)NC(=O)[C@H](C)NC(=O)[C@H](CC(=O)O)NC(=O)[C@H]([C@@H](C)O)NC1=O |  | 1290 | > 10000
CC[C@H](C)[C@@H]1NC(=O)[C@H](CCCNC(=N)N)NC(=O)[C@H](CCCNC(=N)N)NC(=O)[C@H](CO)NC(=O)[C@H](Cc2ccc(O)cc2)NC(=O)[C@H](CCCNC(=N)N)NC(=O)[C@H](CCCNC(=N)N)NC(=O)[C@H](CCCNC(=N)N)NC(=O)[C@H](CCCNC(=N)N)NC(=O)[C@H](CC(=O)O)NC(=O)[C@H](Cc2ccc(O)cc2)NC(=O)[C@@H]2CCCN2C(=O)[C@H](CO)NC(=O)[C@H](CCCNC(=N)N)NC(=O)[C@H](CO)NC(=O)[C@H](Cc2ccc(O)cc2)NC(=O)[C@H](CCCNC(=N)N)NC(=O)CNC(=O)[C@H](CO)NC(=O)[C@H](CO)NC(=O)[C@H](CCCNC(=N)N)NC(=O)[C@@H](NC(=O)[C@@H](N)[C@@H](C)O)CSSC[C@@H](C(=O)N[C@H](C(=O)O)C(C)C)NC(=O)[C@H](C)NC(=O)[C@H](CC(=O)O)NC(=O)[C@H]([C@@H](C)O)NC1=O |  | 2990 | 2100
